In PMC5771124, “Characterization of a functional insertion sequence ISSau2 from Staphylococcus aureus”:
For at least one entry, the source does not settle the construct or the ends of the probe.

Tested on: ISSau2 transposase OrfAB F226L (Staphylococcus aureus E48 (ISSau2 in sdrC))
Experiment: EMSA
Conditions: Mg2+, poly(dI-dC), 0.42 ug OrfAB, similar affinity to IRL42; recombinant protein; protein details: N-terminal 6-His (pET32a vector fusion); label: biotin end label; letters put together from the description

AATTTTAATTATTTAATTGTCTACTAGACTGGGTGCAGTTCA (double strand) [IRR42]
binding result: binds
